Experimental data as given in PubChem BioAssay AID1822 (The Scripps Research Institute Molecular Screening Center, 2009).
The list shows a part of the results, in another mix than the full data. The source made the active and inactive calls.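 Rule for the calls: active = inhibition above the campaign mean inhibition over all tested compounds plus 3 SD (cut at about 28% in these data); inactive = the rest.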

Each compound was assayed on M18 aspartyl aminopeptidase (Plasmodium falciparum 3D7) (assay: inhibition of P. falciparum M18 aminopeptidase – biochemical, QFRET, recombinant enzyme, primary screen (AID 1822;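 note: 0% = plate median of test compound wells and 100% = 2 mM ZnCl2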)). Conditions: recombinant PfM18AAP, H-Glu-NHMec fluorogenic cleavage; at 7.35 µM; stronger effect = higher value.
`CC(=O)Nc1ccc([As](=O)(O)O)cc1` was tested, and the inhibition was inactive: 2.05%.
For `O=P(Nc1nc2ccc(Cl)cc2s1)(c1ccccc1)c1ccccc1`, the inhibition was inactive: -1.15%.
For `CCN(N=Nc1nonc1N)c1nonc1N`, the inhibition was inactive: -2.87%.
`Nc1cccc2ccc([As](=O)(O)O)cc12` was tested, and the inhibition was inactive: 12.5%.
With `O=[N+]([O-])c1cc([N+](=O)[O-])c(CCN2CCOCC2)c([N+](=O)[O-])c1` the inhibition was inactive: 16.4%.
For `Cc1ccc2nc3c(c(C)c2c1)CC(C(Cl)Cl)S3` (stereo not drawn), the inhibition was inactive: -9.28%.
In the case of `Cc1ccc(OP(=O)(Nc2ccc([N+](=O)[O-])cn2)Oc2ccc(C)cc2)cc1`, the inhibition is reported as inactive: -3.34%.
With `C[As](=O)(O)c1cccc(C(=O)O)c1` the inhibition was inactive: -7.99%.
For `O=[As](O)(c1ccc(O)cc1)c1ccccc1O`, the inhibition was inactive: 9.58%.
For `CCN(CC)C(=S)SC(NC=O)C(Cl)(Cl)Cl` (stereo not drawn), the inhibition was inactive: -1.06%.
In the case of `CC(C)NC(=O)NP(=O)(Oc1ccccc1)Oc1ccccc1`, the inhibition is reported as inactive: 7.17%.
`O=[N+]([O-])c1cc([N+](=O)[O-])c(-c2ccn[nH]2)s1` was tested, and the inhibition was inactive: 16.3%.
With `CC(C)c1ccc(OP(=O)(Nc2ccccn2)Oc2ccccc2F)cc1` (stereo not drawn) the inhibition was inactive: 3.79%.
In the case of `ClCCSc1nnc(-c2cccnc2)o1`, the inhibition is reported as inactive: 2.59%.
With `COc1ccc2nc(NP(=O)(c3ccccc3)c3ccccc3)sc2c1` the inhibition was inactive: -9.1%.
In the case of `COc1cc(I)ccc1[As](=O)(O)O`, the inhibition is reported as inactive: -3.16%.
With `O=C(OC1CN2CCC1CC2)C12CC3CC(CC(C3)C1)C2` (stereo not drawn) the inhibition was inactive: -20.8%.
`Cc1cc(=O)[nH]c(N[N+](=O)[O-])n1` was tested, and the inhibition was inactive: -1.64%.
In the case of `Cc1c2c(nc3ccccc13)SC(C(Cl)Cl)C2` (stereo not drawn), the inhibition is reported as inactive: 4.8%.
`COc1ccc(N/C(=N/P(=O)(N2CCOCC2)N2CCOCC2)N2CCOCC2)cc1` was tested, and the inhibition was inactive: 5.5%.
In the case of `O=C(COc1ccccc1)OC1CN2CCC1CC2` (stereo not drawn), the inhibition is reported as inactive: 2.64%.
For `O=C(Nc1ccncc1[N+](=O)[O-])c1ccc([N+](=O)[O-])cc1[N+](=O)[O-]`, the inhibition was inactive: -0.04%.
In the case of `COP1(=S)c2c(C)nn(CCC#N)c2N=C(c2ccc(F)cc2)N1C` (stereo not drawn), the inhibition is reported as inactive: -0.81%.
`CCC(C)N(CC(C)C)C(=S)SC(NC(C)=O)C(Cl)(Cl)Cl` (stereo not drawn) was tested, and the inhibition was inactive: -10.7%.
In the case of `CCOC(=O)c1ccc(NC(=O)C(C)(CCl)SC)cc1` (stereo not drawn), the inhibition is reported as inactive: 2.21%.
`O=C(OC1CN2CCC1CC2)c1cccc([N+](=O)[O-])c1` (stereo not drawn) was tested, and the inhibition was inactive: -8.07%.
For `CCCCOc1ccc(C(=O)NCC2(N3CCCCC3)CCCCC2)cc1OC`, the inhibition was inactive: 0.69%.
With `Cc1cc(SC(NC(=O)c2ccccc2)C(Cl)(Cl)Cl)nc(C(C)C)n1` (stereo not drawn) the inhibition was inactive: 11.9%.
